Anti-infective test results gathered from many reports (values: NIAID ChemDB through PubChem).

Common to all: tests in culture; organism: HIV-1

Neighbouring rows are from separate reports. ECn: concentration that inhibits the pathogen or its effect by n%.

Nc1ncnc2c1ncn2CC(CF)OCP(=O)(O)O ; strain: IIIB TIBO R82913 STR-B22 (RT L100I Y188H) ; cell line: CEM ; method: syncytia ; read-out: EC50 ; changes: RT-L100I Y188H ; result: 4 µM
Nc1ccn([C@@H]2CS[C@H](CO)O2)c(=O)n1 ; cell line: Primary T lymphocytes ; method: p24 / ELISA ; read-out: EC50 ; changes: 4xAZT ; result: 0.7 µM
CC(C)(C)OC(=O)N[C@@H](Cc1ccccc1)[C@H](O)CNC[C@@H](O)[C@H](Cc1ccc(OCC(=O)N2CCOCC2)cc1)NC(=O)OC(C)(C)C ; strain: NL4-3 ; cell line: MT-2 ; method: p24 ; read-out: EC50 ; result: 0.032 µM
CC(C)=CCN1Cc2cc(Cl)cc3[nH]c(=S)n(c23)C[C@@H]1C ; strain: IIIB TIBO R82150-resistant (RT L100I) ; cell line: CEM ; method: syncytia ; read-out: EC50 ; changes: RT-L100I ; result: 1.7 µM
O=[N+]([O-])c1ccccc1Sc1ccccc1[N+](=O)[O-] ; strain: RF ; cell line: CEM + CEM-SS ; method: cytopathic effect / XTT ; read-out: EC50 ; result: 5.7 µM
CCOCn1c(Cc2ccccc2)c(C(C)C)c(=O)[nH]c1=O ; strain: IIIB ; cell line: C8166 ; method: cytopathic effect ; read-out: EC50 ; result: 0.003 µg/mL
Cc1ccnc2c1NC(=O)c1cccnc1N2C1CC1 ; strain: NNRTI-resistant (RT V106I Y181C) ; cell line: MAGI ; method: β-galactosidase ; read-out: EC50 ; changes: RT-V106I Y181C ; result: >10 µM
Cc1c(Sc2ccccc2)n(COCCO)c(=O)[nH]c1=O ; strain: IIIB ; cell line: CEM + CEM-SS ; method: cytopathic effect / XTT ; read-out: EC50 ; changes: RT-V90I T139I P225S ; result: 69.5 µM
O=c1[nH]cnc2c1ncn2C1CC[C@@H](CO)O1 ; strain: LAI ; cell line: Primary T lymphocytes ; method: p24 / ELISA ; read-out: EC90 ; result: 55.4 µM
CC(C)=CCN1Cc2cc(Cl)cc3[nH]c(=S)n(c23)C[C@@H]1C ; strain: HEPT (RT Y188H) ; cell line: CEM ; method: syncytia ; read-out: EC50 ; changes: RT-Y188H ; result: 3.1 µM
Cc1cn([C@H]2C[C@H](N=[N+]=[N-])[C@@H](CO)O2)c(=O)[nH]c1=O ; strain: CBL-1 ; cell line: C8166 ; method: cytopathic effect ; read-out: EC90 ; result: 0.1 µg/mL
Cc1cn([C@@H]2O[C@H](CO[Si](C)(C)C(C)(C)C)C3(OS(=O)(=O)C=C3N)[C@H]2O[Si](C)(C)C(C)(C)C)c(=O)n(C)c1=O ; strain: IIIB ; cell line: CEM ; method: syncytia ; read-out: EC50 ; changes: RT-V106A ; result: 1.15 ± 0.49 µM
CC(C)CN(C[C@@H](O)[C@H](Cc1ccccc1)NC(=O)[C@@H](NC(=O)CNCc1cccc(F)c1)C(C)(C)C)S(=O)(=O)c1ccc(N)cc1 ; strain: IIIB ; cell line: MT-2 ; method: virus yield ; read-out: EC50 ; result: <0.0088 µM
CCc1c(Sc2ccccn2)n(COCc2ccccc2)c(=O)[nH]c1=O ; strain: IIIB ; cell line: CEM + CEM-SS ; method: cytopathic effect / XTT ; read-out: EC50 ; changes: RT-P236L ; result: 1.1 µM
Cc1c(O)cccc1C(=O)N[C@@H](CSc1ccccc1)[C@H](O)CN1C[C@H]2CCCC[C@H]2C[C@H]1C(=O)NC(C)(C)C ; strain: HXB2 ; cell line: PBMC ; method: p24 ; read-out: EC50 ; changes: PR-M46I L63P A71V V82F I84V ; result: <0.45 µM
CC(C)(C)NC(=O)[C@@H]1C[C@@H]2CCCC[C@@H]2CN1C[C@@H](O)[C@H](Cc1ccccc1)NC(=O)[C@H](CC(N)=O)NC(=O)c1ccc2ccccc2n1 ; strain: NL4-3 ; cell line: MT-4 ; method: p24 ; read-out: EC50 ; changes: PR-V82T ; result: <0.025 µM
CC(C)=CCOc1cc(NC(=S)c2ccoc2C)ccc1Cl ; strain: IIIB ; cell line: C8166 ; method: cytopathic effect ; read-out: EC50 ; result: 0.002 µg/mL
O=c1[nH]cnc2c1ncn2[C@H]1CC[C@@H](CO)O1 ; strain: RTMC ; cell line: HT4 + HT4 LacZ-1 ; method: plaque count ; read-out: EC50 ; changes: RT-D67N K70R T215Y K219Q ; result: 2 µM
COc1c(O)c(Br)c2c(c1OC)-c1c(c(Br)c(O)c(OC)c1OC)C[C@H](C)[C@H](C)C2 ; strain: IIIB ; cell line: H9 ; method: p24 ; read-out: EC50 ; result: 0.13 µM
Nc1ccn([C@H]2CC[C@@H](CO)O2)c(=O)n1 ; strain: IIIB TSAO-T(RT-E138K) ; cell line: CEM ; method: syncytia ; read-out: EC50 ; changes: RT-E138K ; result: 0.03 µM
O=[N+]([O-])c1ccccc1S(=O)(=O)c1ccccc1 ; strain: TP1 ; cell line: CEM + CEM-SS ; read-out: EC50 ; result: 8.78 µM
Cc1cn([C@H]2C[C@H](N=[N+]=[N-])[C@@H](CO)O2)c(=O)[nH]c1=O ; strain: IIIB ; cell line: CEM + CEM-SS ; method: cytopathic effect / XTT ; read-out: EC50 ; changes: RT-K103N Y181C ; result: 0.01 µM
CC(C)Nc1cccnc1N1CCN(C(=O)c2cc3ccccc3[nH]2)CC1 ; strain: Pyr/BHAP(RT-Y181I) ; cell line: CEM ; method: syncytia ; read-out: EC50 ; changes: RT-Y181I ; result: 6.6 µM
CC(C)(C)NC(=O)[C@@H]1C[C@@H]2CCCC[C@@H]2CN1C[C@@H](O)[C@H](Cc1ccccc1)NC(=O)[C@H](CC(N)=O)NC(=O)c1ccc2ccccc2n1 ; strain: IIIB ; cell line: MT-4 ; method: cytopathic effect / XTT ; read-out: EC50 ; changes: PR-I84V ; result: 0.013 µM
CC[C@H](C)[C@H](NC(=O)c1ccccc1SSc1ccccc1C(=O)N[C@H](C(=O)O)[C@@H](C)CC)C(=O)O ; strain: BR /93/020 ; cell line: PBMC ; method: p24 / RT activity ; read-out: EC50 ; result: 7.8 µM
Cc1ccc(S(=O)(=O)c2ccccn2)cc1 ; strain: RF ; cell line: CEM + CEM-SS ; method: cytopathic effect / XTT ; read-out: EC50 ; result: 92 µM
NC(=O)C(c1ccccc1)(c1ccccc1)C1CCCN(CCOc2ccccc2)C1 ; strain: NL4-3 ; cell line: MT-2 ; method: cytopathic effect / XTT ; read-out: EC50 ; result: 5.4 µM
O=[N+]([O-])c1ccccc1S(=O)(=O)c1ccc(Cl)cc1 ; strain: RF ; cell line: CEM + CEM-SS ; method: cytopathic effect / XTT ; read-out: EC50 ; result: 11 µM
CC(C)=CCOc1cc(NC(=S)c2ccsc2C)ccc1Cl ; strain: IIIB ; cell line: C8166 ; method: cytopathic effect ; read-out: EC50 ; result: 0.002 µg/mL
CC(=O)c1ccc(C)cc1NC(C(N)=O)c1c(Cl)cccc1Cl ; strain: IIIB ; cell line: MAGI ; method: MTT ; read-out: EC50 ; changes: RT-V189I T240I ; result: 1.8 µM
NC(=O)C(c1ccccc1)(c1ccccc1)[C@H]1CCCN(CCc2ccc3c(c2)CCO3)C1 ; strain: NL4-3 ; cell line: CEM4 ; method: cytopathic effect / XTT ; read-out: EC50 ; result: 0.95 µM
Cc1cn([C@H]2C[C@H](N=[N+]=[N-])[C@@H](CO)O2)c(=O)[nH]c1=O ; strain: IIIB TSAO-T(RT-E138K) ; cell line: CEM ; method: syncytia ; read-out: EC50 ; changes: RT-E138K ; result: 0.009 µM
N#CC[C@H](C1CCCC1)n1cc(-c2ncnc3[nH]ccc23)cn1 ; cell line: Macrophage ; method: p24 / ELISA ; read-out: EC90 ; result: 3.1 µM
O=C1N(Cc2ccc(CO)cc2)[C@H](Cc2ccccc2)[C@H](O)[C@@H](O)[C@@H](Cc2ccccc2)N1Cc1ccc(CO)cc1 ; strain: Isolate A PR L10V/T12I/G16E/R57K/I64V ; cell line: PBMC ; method: p24 ; read-out: EC50 ; changes: PR-L10V T12I G16E R57K I64V ; result: <0.2 µM
Cc1ccnc2c1NC(=O)c1cccnc1N2C1CC1 ; strain: NL4-3 ; cell line: CEM + CEM-SS ; method: cytopathic effect / XTT ; read-out: EC50 ; changes: RT-Y188C ; result: 3.2 µM
CCc1cc(NCc2nc3c(Cl)ccc(Cl)c3o2)c(=O)[nH]c1C ; strain: Pyr/BHAP(RT-Y181I) ; cell line: CEM ; method: syncytia ; read-out: EC50 ; changes: RT-Y181I ; result: >30 µM
CC(C)=CCN1Cc2cccc3[nH]c(=S)n(c23)C[C@@H]1C ; strain: IIIB ; cell line: MT-4 ; method: cytopathic effect / MTT ; read-out: EC50 ; result: 0.18 µM
CC(C)[C@H](NC(=O)N(C)Cc1ccccn1)C(=O)N[C@@H](Cc1ccccc1)[C@H](O)[C@H](O)[C@H](Cc1ccccc1)NC(=O)[C@@H](NC(=O)N(C)Cc1ccccn1)C(C)C ; strain: RF ; cell line: MT-2 ; method: p24 ; read-out: EC50 ; result: 0.04 µM
Nc1ncnc2c1ncn2CCOCP(=O)(O)O ; strain: IIIB TSAO-T(RT-E138K) ; cell line: CEM ; method: syncytia ; read-out: EC50 ; changes: RT-E138K ; result: 15 µM
CCN(C(=O)OCc1ccccc1)C1CCN(C[C@H]2CN(C(=O)c3ccccc3Cl)C[C@@H]2c2ccccc2)CC1 ; strain: YU2 ; cell line: PBMC ; method: p24 ; read-out: EC50 ; result: <1.5 µM
CNC(=O)C(c1ccccc1)(c1ccccc1)[C@H]1CCCN(CCc2ccc3c(c2)CCO3)C1 ; strain: NL4-3 ; cell line: MT-2 ; method: cytopathic effect / XTT ; read-out: EC50 ; result: 5.9 µM
COc1c(O)c(Cl)c2c(c1OC)-c1c(c(Cl)c(O)c(OC)c1OC)C[C@H](C)[C@H](C)C2 ; strain: IIIB ; cell line: MT-4 ; method: cytopathic effect / MTT ; read-out: EC50 ; result: 1.23 µM
Cc1cn([C@@H]2O[C@H](CO[Si](C)(C)C(C)(C)C)C3(OS(=O)(=O)C=C3N)[C@H]2O[Si](C)(C)C(C)(C)C)c(=O)n(C)c1=O ; strain: IIIB ; cell line: CEM ; method: syncytia ; read-out: EC50 ; result: 0.04 µM

Repeating the final 6 entries:

{"structure": "CC(C)[C@H](NC(=O)N(C)Cc1ccccn1)C(=O)N[C@@H](Cc1ccccc1)[C@H](O)[C@H](O)[C@H](Cc1ccccc1)NC(=O)[C@@H](NC(=O)N(C)Cc1ccccn1)C(C)C", "strain": "RF", "cell line": "MT-2", "method": "p24", "read-out": "EC50", "result": "0.04 µM"}
{"structure": "Nc1ncnc2c1ncn2CCOCP(=O)(O)O", "strain": "IIIB TSAO-T(RT-E138K)", "cell line": "CEM", "method": "syncytia", "read-out": "EC50", "changes": "RT-E138K", "result": "15 µM"}
{"structure": "CCN(C(=O)OCc1ccccc1)C1CCN(C[C@H]2CN(C(=O)c3ccccc3Cl)C[C@@H]2c2ccccc2)CC1", "strain": "YU2", "cell line": "PBMC", "method": "p24", "read-out": "EC50", "result": "<1.5 µM"}
{"structure": "CNC(=O)C(c1ccccc1)(c1ccccc1)[C@H]1CCCN(CCc2ccc3c(c2)CCO3)C1", "strain": "NL4-3", "cell line": "MT-2", "method": "cytopathic effect / XTT", "read-out": "EC50", "result": "5.9 µM"}
{"structure": "COc1c(O)c(Cl)c2c(c1OC)-c1c(c(Cl)c(O)c(OC)c1OC)C[C@H](C)[C@H](C)C2", "strain": "IIIB", "cell line": "MT-4", "method": "cytopathic effect / MTT", "read-out": "EC50", "result": "1.23 µM"}
{"structure": "Cc1cn([C@@H]2O[C@H](CO[Si](C)(C)C(C)(C)C)C3(OS(=O)(=O)C=C3N)[C@H]2O[Si](C)(C)C(C)(C)C)c(=O)n(C)c1=O", "strain": "IIIB", "cell line": "CEM", "method": "syncytia", "read-out": "EC50", "result": "0.04 µM"}